Measured values from several laboratories, pooled; numbers as filed in NIAID ChemDB.

All rows: whole-cell or culture tests; agent: Candida albicans; read-out: MIC50

a–b is a range or a potency band.

structure,strain or isolate,read by,setting,result
Clc1ccc(C(c2c[nH]cc2-c2ccccc2)n2ccnc2)cc1,40 strains,,,8 µg/mL
C=C(C)CN1C[C@H](OC[C@@]23C[C@@H]4[C@H](C)CC[C@H]4[C@@]4(C=O)C[C@@H]2CC(C(C)C)[C@@]34C(=O)O)O[C@H](C)C1,16 isolates/fluconazole resistant,,,0.008 µg/mL
c1ccc(C(c2ccc3ccccc3c2)n2ccnc2)cc1,23 strains,,,8 µg/mL
C[C@H]1[C@H](O)[C@@H](C)/C=C/C=C/C=C/C=C/C=C/C=C/C=C/[C@H](O[C@@H]2O[C@H](C)[C@@H](O)[C@H](N)[C@@H]2O)C[C@@H]2O[C@](O)(C[C@@H](O)C[C@@H](O)CC[C@H](O)[C@@H](O)C[C@@H](O)CC(=O)O[C@H]1C)C[C@H](O)[C@H]2C(=O)O,,,,1 µg/mL
CC(C)C1C[C@H]2C[C@]3(C=O)[C@@H]4CC[C@@H](C)[C@H]4C[C@@]2(CO[C@H]2CN(C4CC4)C[C@@H](C)O2)[C@]13C(=O)O,16 isolates,,,0.015 µg/mL
CCC(c1ccc(Cl)cc1)C(c1ccc(OC)cc1)n1ccnc1,28 strains,,,32 µg/mL
Clc1ccccc1C(c1ccccc1)(c1ccccc1)n1ccnc1,15 isolates,,,10 µg/mL
C=CCSS(=O)CC=C,Clinical Isolate 3151,broth dilution,,0.2 µg/mL
COc1ccc(C(Cc2ccc(Cl)cc2)n2ccnc2)cc1,28 strains,,,8 µg/mL
C[C@@H](c1ncncc1F)[C@](O)(Cn1cncn1)c1ccc(F)cc1F,,broth dilution,,0.015 µg/mL
COc1ccc(CC(c2ccc(OC)cc2)n2ccnc2)cc1,28 strains,,,32 µg/mL
COc1cc(C=O)cc2c1[nH]c1ccccc12,,,,>50 µg/mL
Clc1ccc(C(c2cccc3ccccc23)n2ccnc2)s1,23 strains,,,4 µg/mL
CC(C)(N)CNCc1ccc(-c2csc(-c3ccc(Cl)cc3)n2)cc1,,,,8 µg/mL
O=C1C(Nc2ccc(Cl)cc2)=C(S(=O)c2ccc(O)cc2)C(=O)c2ccccc21,,,,0.53–1 µg/mL
COc1ccc(C(Cc2ccc(Cl)cc2)n2cnnc2)cc1,28 strains,,,128 µg/mL
Cc1ccc(-c2c3c(N)c4c(nc3nc3c2c(C)nn3-c2ccccc2)CCCC4)cc1,CCC 127,broth dilution / absorbance,,31.2 µg/mL
COC(/C=C/c1ccccc1)=C1/C(=O)C=C(C)C1=O,Isolate 17,,,0.3 µg/mL
Clc1ccc(-c2c[nH]cc2C(c2ccccc2)n2ccnc2)cc1Cl,40 strains,,,89 µg/mL
Cc1ccc(-c2c3c(N)c4c(nc3nc3c2c(C)nn3-c2ccccc2)CCCCC4)cc1,ATCC 10231,broth dilution / absorbance,,62.5 µg/mL
CC(C)=CCCNC(N)=NCCCCCCCCCNCCCCCCCN=C(N)N,ATCC 60193,,,80 µM
CC[C@@H]([C@H](C)O)n1ncn(-c2ccc(N3CCN(c4ccc(OC[C@@H]5CO[C@@](Cn6cncn6)(c6ccc(F)cc6F)C5)cc4)CC3)cc2)c1=O,,,,0.031 µg/mL
CCC(C)CC(C)CCCCCCCCC(=O)N[C@H]1C[C@@H](O)[C@@H](OCCN)NC(=O)[C@@H]2[C@@H](O)CCN2C(=O)[C@H]([C@@H](O)CCN)NC(=O)[C@H]([C@H](O)[C@@H](O)c2ccc(O)cc2)NC(=O)[C@@H]2C[C@@H](O)CN2C(=O)[C@H]([C@H](C)O)NC1=O,50 isolates,,,0.1 µg/mL
C[C@@H](c1ncncc1F)[C@](O)(Cn1cncn1)c1ccc(F)cc1F,ATCC 90028,,,0.0027 µg/mL
COc1ccc(C(C(Cc2ccc(Cl)cc2Cl)c2ccc(Cl)cc2)n2ccnc2)cc1,28 strains,,,16 µg/mL
C[C@@H](c1ncncc1F)[C@](O)(Cn1cncn1)c1ccc(F)cc1F,Isolate HR-Micro,,48 h,0.02 µg/mL
COc1ccc(CC(c2ccc(OC)cc2)n2cnnc2)cc1,28 strains,,,256 µg/mL
O[C@](Cn1cncn1)(Cn1cnc(/C=C/c2ccc(OCC(F)(F)C(F)F)cc2)n1)c1ccc(F)cc1F,119 isolates,,,≤0.007 µg/mL
O=S(c1ccccc1)c1c(SBr)c(O)c2ccccc2c1O,,,,2–3 µg/mL
C=CC[C@@H]1/C=C(/C)C[C@H](C)C[C@H](OC)[C@H]2O[C@@](O)(C(=O)C(=O)N3CCCC[C@H]3C(=O)O[C@H](/C(C)=C/[C@@H]3CC[C@@H](O)[C@H](OC)C3)[C@H](C)[C@@H](O)CC1=O)[C@H](C)C[C@@H]2OC,SC5314,broth dilution / turbidity,,>16 µg/mL
Cc1ccc(C(C)C)cc1O,,,,64 µg/mL
CN(CCc1ccc(-c2csc(-c3ccc(Cl)cc3)n2)cc1)CC(C)(C)N,,,,8 µg/mL
CCS(=O)(=O)C(F)(F)C(O)(Cn1cncn1)c1ccc(F)cc1F,55 strains,,,0.063 µg/mL
COc1c2c(cc3oc(=O)ccc13)OC(C)(C)C=C2,,,,>50 µg/mL
CN1CCN(c2ccc3nc(-c4ccc5nc(-c6ccc(O)cc6)[nH]c5c4)[nH]c3c2)CC1,RO102,,,32 µM
CC(C)CCC[C@@H](C)[C@H]1CCC2C3C(CC[C@@]21C)[C@@]1(C)CC[C@H](O)CC1=C[C@H]3O,CIP 1663-86,,,>50 µg/mL
CC[C@@H]([C@H](C)O)n1ncn(-c2ccc(N3CCN(c4ccc(OC[C@@H]5CO[C@@](Cn6cncn6)(c6ccc(F)cc6F)C5)cc4)CC3)cc2)c1=O,166 isolates,,,0.06 µg/mL
NC(N)=NCCCCCCCCCNCCCCCCCN=C(N)N,53T,,,40 µM
CCC(c1ccc(OC)cc1)C(c1ccc(OC)cc1)n1cnnc1,28 strains,,,256 µg/mL
CCC(C)n1ncn(-c2ccc(N3CCN(c4ccc(OC[C@H]5CO[C@](Cn6cncn6)(c6ccc(Cl)cc6Cl)O5)cc4)CC3)cc2)c1=O,ATCC 10231,,,5 µg/mL
COc1cc(O)c2c(c1)C(=O)c1c(cc3c(c1O)-c1c(cc(C)c(C(=O)NC(CO)C(=O)O)c1O)[C@H](OC1OC(C)C(O)C(OC4OCC(O)C(O)C4O)C1O)C3O)C2=O,97 isolates,,,4 µg/mL
COc1ccc(C(c2cccc3ccccc23)n2ccnc2)cc1,23 strains,,,32 µg/mL
CCC(C)CC(C)CCCCCCCCC(=O)N[C@H]1C[C@@H](O)[C@H](NCCN)NC(=O)[C@@H]2[C@@H](O)CCN2C(=O)[C@H]([C@H](O)CCN)NC(=O)[C@H]([C@H](O)[C@@H](O)c2ccc(O)cc2)NC(=O)[C@@H]2C[C@@H](O)CN2C(=O)[C@H]([C@@H](C)O)NC1=O,,broth dilution,,0.25 µg/mL
CC(C)CCC[C@@H](C)[C@H]1CCC2C3C(CC[C@@]21C)[C@@]1(C)CC[C@H](O)C=C1C[C@@H]3O,CIP 1663-86,,,12.5 µg/mL
C[C@H]1[C@H](O)[C@@H](C)/C=C/C=C/C=C/C=C/C=C/C=C/C=C/[C@H](O[C@@H]2O[C@H](C)[C@@H](O)[C@H](N)[C@@H]2O)C[C@@H]2O[C@](O)(C[C@@H](O)C[C@@H](O)CC[C@H](O)[C@@H](O)C[C@@H](O)CC(=O)O[C@H]1C)C[C@H](O)[C@H]2C(=O)O,50 isolates,,,0.05 µg/mL
C=CC(C)(C)c1c2c(c(O)c3ccc(=O)oc13)C=CC(C)(C)O2,,,,>50 µg/mL
Nc1[nH]c(=O)ncc1F,19 strains,,,0.25 µg/mL
CC(=O)OCC1C=C(c2cccc(Cl)c2)C(=O)O1,16 isolates fluconazole-susceptible,,,2 µg/mL
COc1ccc(-c2nnc(-c3ccc(C(C)(C)N)cc3)o2)cc1,,,,4 µg/mL
C=C=CCN1C[C@H](OC[C@@]23C[C@@H]4[C@H](C)CC[C@H]4[C@@]4(C=O)C[C@@H]2CC(C(C)C)[C@@]34C(=O)O)O[C@H](C)C1,16 isolates,,,0.015 µg/mL
C[C@H]1[C@H](O)[C@@H](C)/C=C/C=C/C=C/C=C/C=C/C=C/C=C/[C@H](O[C@@H]2O[C@H](C)[C@@H](O)[C@H](N)[C@@H]2O)C[C@@H]2O[C@](O)(C[C@@H](O)C[C@@H](O)CC[C@H](O)[C@@H](O)C[C@@H](O)CC(=O)O[C@H]1C)C[C@H](O)[C@H]2C(=O)O,52 strains,,,1 µg/mL
COc1cc(/C=C2\SC(=S)NC2=O)cc(OC)c1OCC(O)(Cn1cncn1)c1ccc(F)cc1F,ATCC 24433,broth dilution,,16 µg/mL
CC(C)CCC[C@@H](C)[C@H]1CCC2C3C(=O)CC4CC(=O)CC[C@]4(C)C3CC[C@@]21C,CIP 1663-86,,,>50 µg/mL
COc1ccc2c(c1)[nH]c1cc(O)c(C=O)cc12,,,,2.8 µg/mL
CCN(CC)CCCC(C)Nc1c2ccc(Cl)cc2nc2ccc(OC)cc12,SC5314,broth dilution,biofilm,125 µg/mL
NC(=NCc1ccccc1)NCCCCCCCN1CCCCCCCCN=C(N)NC1=O,4T,,,2.5 µM
Clc1ccc(C(c2ccc3ccccc3c2)n2ccnc2)cc1,23 strains,,,8 µg/mL
OC(Cn1cncn1)(Cn1cncn1)c1ccc(F)cc1F,50 isolates,,,0.16 µg/mL
CCC(C)n1ncn(-c2ccc(N3CCN(c4ccc(OC[C@H]5CO[C@](Cn6cncn6)(c6ccc(Cl)cc6Cl)O5)cc4)CC3)cc2)c1=O,166 isolates,,,0.03 µg/mL
c1csc(C(c2ccc3ccccc3c2)n2ccnc2)c1,23 strains,,,8 µg/mL
CCC(C)n1ncn(-c2ccc(N3CCN(c4ccc(OC[C@H]5CO[C@](Cn6cncn6)(c6ccc(Cl)cc6Cl)O5)cc4)CC3)cc2)c1=O,13 strains (fluconazole-resistant),,,>8 µg/mL
Nc1ncccc1-c1cc(Cc2ccc(COc3ccccn3)cc2)no1,,broth dilution,,<0.03 µg/mL
N=C(N)N(CCCCCCCCCN=C(N)N)CCCCCCCN=C(N)N,4T,,,5 µM
O=C1C(Nc2ccc(Br)cc2)=C(S(=O)c2ccc(O)cc2)C(=O)c2ccccc21,,,,>3 µg/mL
CC(=O)OCC1C=C(c2ccc(Br)cc2)C(=O)O1,16 isolates fluconazole-susceptible,,,1 µg/mL
Cc1ccc(C(c2ccc3ccccc3c2)n2ccnc2)cc1,23 strains,,,4 µg/mL
O=S(c1ccccc1)c1c(S)c(O)c2ccccc2c1O,,,,>3 µg/mL
C[C@H]1[C@H](O)[C@@H](C)/C=C/C=C/C=C/C=C/C=C/C=C/C=C/[C@H](O[C@@H]2O[C@H](C)[C@@H](O)[C@H](N)[C@@H]2O)C[C@@H]2O[C@](O)(C[C@@H](O)C[C@@H](O)CC[C@H](O)[C@@H](O)C[C@@H](O)CC(=O)O[C@H]1C)C[C@H](O)[C@H]2C(=O)O,ATCC 10231,,,5 µg/mL
Cc1ccc(-c2c3c(N)c4c(nc3nc3c2c(C)nn3-c2ccccc2)CCC4)cc1,ATCC 10231,broth dilution / absorbance,,62.5 µg/mL
O=Cc1cc2c(cc1O)[nH]c1ccccc12,,,,29.3 µg/mL
C/C=C/CN=C(N)NCCCCCCCN1CCCCCCCCN=C(N)NC1=O,ATCC 60193,,,2.5 µM
COc1ccc(C(Cc2ccc(Cl)cc2)n2cncn2)cc1,28 strains,,,32 µg/mL

Repeating the final 8 entries:

CC(=O)OCC1C=C(c2ccc(Br)cc2)C(=O)O1 ; strain or isolate: 16 isolates fluconazole-susceptible ; result: 1 µg/mL
Cc1ccc(C(c2ccc3ccccc3c2)n2ccnc2)cc1 ; strain or isolate: 23 strains ; result: 4 µg/mL
O=S(c1ccccc1)c1c(S)c(O)c2ccccc2c1O ; result: >3 µg/mL
C[C@H]1[C@H](O)[C@@H](C)/C=C/C=C/C=C/C=C/C=C/C=C/C=C/[C@H](O[C@@H]2O[C@H](C)[C@@H](O)[C@H](N)[C@@H]2O)C[C@@H]2O[C@](O)(C[C@@H](O)C[C@@H](O)CC[C@H](O)[C@@H](O)C[C@@H](O)CC(=O)O[C@H]1C)C[C@H](O)[C@H]2C(=O)O ; strain or isolate: ATCC 10231 ; result: 5 µg/mL
Cc1ccc(-c2c3c(N)c4c(nc3nc3c2c(C)nn3-c2ccccc2)CCC4)cc1 ; strain or isolate: ATCC 10231 ; read by: broth dilution / absorbance ; result: 62.5 µg/mL
O=Cc1cc2c(cc1O)[nH]c1ccccc12 ; result: 29.3 µg/mL
C/C=C/CN=C(N)NCCCCCCCN1CCCCCCCCN=C(N)NC1=O ; strain or isolate: ATCC 60193 ; result: 2.5 µM
COc1ccc(C(Cc2ccc(Cl)cc2)n2cncn2)cc1 ; strain or isolate: 28 strains ; result: 32 µg/mL

An empty or dashed field is not shown. Conditions beyond the fields shown may differ between rows. MIC50, MIC90 and the like: level of inhibition, or share of isolates inhibited.